Laboratory results: paper PMC8326586

Tested on: AbTetR (TetR class G) (Acinetobacter baumannii AYE)
Test: EMSA
Conditions: 5 uM AbTetR, 70 ng poly[d(I-C)]; recombinant protein; residues 1-208; protein details: C-terminal His6; probe letters rebuilt from the primers and the genome

“GCACAAGCTCACGCAGAAGCGTCGGAAGGACGGGCATGATGAGGCCGAGACCCATGGCGTCAAGACCCACGATCAGCAGGGCAATGATGGCAGAGCTGCGCACCTGAAACTCCAGCGCCGCTCAATGGAGCGACTTTATCAACGATAAGGAGATGGACATATAACTTATCGGTGATAAATTGTCAAGCACTGGCGAAGGAACGTGAATGACCAAACTGGACAAGGGCACCGTGATCGCGGCGGCGCTAGAGCTGTTGAACGAGGTTGGCATGGACAGCCTGACGACGCGGAAGCTCGCTGAACGCCTCAAGGTTCAGCA (double strand) [319 bp tetR-tetA(G) fragment]”: binds.
